Compound potency records, mixed from different reports. Data source: NIAID ChemDB in PubChem.

Common to all: tests in culture; agent: HIV-1; read by: syncytia; measure: EC50

ECn: concentration that inhibits the pathogen or its effect by n%. Blank or dashed fields: not listed here. Rows are shuffled and stem from different studies.

structure | strain or isolate | changes | cells | result
CCCCC[C@H](O)/C=C/[C@H]1C=CC(=O)[C@@H]1CCCCCCC(=O)O | IIIB | - | C8166 | ~2 µM
Cc1ccnc2c1NC(=O)c1cccnc1N2C1CC1 | RF | - | MT-4 | 0.04 µM
Cc1cn([C@H]2C=C[C@@H](COP(=O)(Nc3cc(C(=O)NCCC(=N)N)n(C)c3)OC(C)C)O2)c(=O)[nH]c1=O | - | - | CEM | 1.87 µM
Cc1cn([C@@H]2O[C@H](CO[Si](C)(C)C(C)(C)C)C3(OS(=O)(=O)C=C3N)[C@H]2O[Si](C)(C)C(C)(C)C)c(=O)n(C)c1=O | IIIB | - | CEM | 0.05 µM
Cc1c(N)nc(N)nc1OCCOCP(=O)(O)O | Clinical isolate HA20.17 | RT-A62V V75I F77L Q151M M184V | CEM | 0.18 µg/mL
Cn1cc(NC(=O)c2cc(NC(=O)c3cc([N+](=O)[O-])cn3C)cn2C)cc1C(=O)NCCC(=N)N | - | - | CEM | >100 µM
COc1ccc(OC2=C(C=O)CC[C@@H]3[C@H]4CCCN5CCC[C@@H](CN23)[C@@H]45)cc1 | IIIB | - | C8166 | 21.85 µg/mL
OC[C@@H]1[C@@H](O)[C@H](O)[C@@H](O)CN1C/C=C/c1ccccc1F | IIIB | - | MOLT-4 | 9.1 µM
CC(C)(C)c1ccc(OC2=C(C=O)CC[C@@H]3[C@H]4CCCN5CCC[C@@H](CN23)[C@@H]45)cc1 | IIIB | - | C8166 | 15.41 µg/mL
Cc1cn([C@H]2C=C[C@@H](CO)O2)c(=O)[nH]c1=O | - | - | CEM | 0.28 µM
Cc1c(N)nc(N)nc1OCCOCP(=O)(O)O | IIIB | - | CEM | 0.09 µg/mL
Cc1cn([C@H]2C[C@H](N=[N+]=[N-])[C@@H](CO)O2)c(=O)[nH]c1=O | IIIB | - | C8166 | 0.00251 µg/mL
OC[C@@H]1[C@@H](O)[C@H](O)[C@@H](O)CN1CC=C(c1ccc(F)cc1)c1ccc(F)cc1 | IIIB | - | MOLT-4 | >210 µM
Cc1cccc(OC2=C(C=O)CC[C@@H]3[C@H]4CCCN5CCC[C@@H](CN23)[C@@H]45)c1 | IIIB | - | C8166 | 2.75 µg/mL
Nc1ncnc2c1ncn2CCOCP(=O)(O)O | Clinical isolate C20 | RT-M41L D67N V118I M184V L210W T215Y | CEM | 25 µg/mL
Cc1cn([C@H]2C[C@H](N=[N+]=[N-])[C@@H](COP(=O)(Nc3cc(C(=O)NCCC(=N)N)n(C)c3)OC3CCCCC3)O2)c(=O)[nH]c1=O | - | - | CEM | 0.152 µM
Cc1cc(C#N)cc(C)c1Nc1ccnc(Nc2ccc(C#N)cc2)n1 | IIIB | - | MT-4 | 0.0004 µM
Cc1cc(C)cc(Sc2c(C(C)C)c(=O)[nH]c(=S)n2COCCO)c1 | IIIB | RT-E138K | CEM | 0.04 µM
OC[C@H]1NC[C@H](O)[C@@H](O)[C@@H]1O | CLB 32 | - | U-937 | <1000 µM
Nc1cc(OCCOCP(=O)(O)O)nc(N)n1 | Clinical isolate C20 | RT-M41L D67N V118I M184V L210W T215Y | CEM | 4.6 µg/mL
Nc1ccn([C@H]2CC[C@@H](CO)O2)c(=O)n1 | - | - | MT-4 | 0.025 µM
OC[C@@H]1[C@@H](O)[C@H](O)[C@@H](O)CN1CCCC1CCCCC1 | IIIB | - | MOLT-4 | 17 µM
COC(=O)C(C)(C)NP(=O)(OC[C@@H]1C=C[C@H](n2cc(C)c(=O)[nH]c2=O)O1)Oc1ccccc1 | IIIB Laboratory clade B | - | CEM + CEM/O | 0.29 µM
Nc1ncnc2c1ncn2CCOCP(=O)(O)O | IIIB | - | CEM | 2.9 µg/mL
Cc1ccnc2c1NC(=O)c1cccnc1N2C1CC1 | IIIB | - | CEM | 0.12 µM
COC(=O)[C@H](C)NP(=O)(OC[C@@H]1C=C[C@H](n2cc(C)c(=O)[nH]c2=O)O1)Oc1ccccc1 | IIIB | - | CEM + CEM/O | 0.085 µM
Cn1cc(NC(=O)c2cc(NC(=O)c3cc([N+](=O)[O-])cn3C)cn2C)cc1C(=O)NCCC#N | - | - | CEM | >100 µM
CC1(C)CCC[C@]2(C)[C@@H](c3ccoc3)C(=O)[C@@H]3O[C@]312 | IIIB | - | CEM + CEM-SS | 15.4 µM
N#CCN1C(=O)N(Cc2cccc(F)c2)S(=O)(=O)c2cscc21 | - | RT-Y181C | CEM | 28.5 µM
CC(=N)CCNC(=O)c1cc(NC(=O)c2cc(NC(=O)c3cc(NP(=O)(OC[C@@H]4C=C[C@H](n5cc(C)c(=O)[nH]c5=O)O4)OC4CCCCC4)cn3C)cn2C)cn1C | - | - | CEM | 0.43 µM
COC1=C(C=O)CC[C@@H]2[C@H]3CCCN4CCC[C@@H](CN12)[C@@H]34 | IIIB | - | C8166 | 10.52 µg/mL
Nc1nc(N)c(Cl)c(OCCOCP(=O)(O)O)n1 | IIIB | - | CEM | 0.93 µg/mL
Cc1cn([C@H]2C[C@H](N=[N+]=[N-])[C@@H](CO)O2)c(=O)[nH]c1=O | - | - | CEM/TK- | >100 µM
OC[C@H]1NC[C@H](O)[C@@H](O)[C@@H]1O | IIIB | - | MOLT-4 | 270 µM
Cc1cn([C@H]2C[C@H](N=[N+]=[N-])[C@@H](COP(=O)(Nc3cc(C(=O)Nc4cc(C(=O)Nc5cc(C(=O)NCCC#N)n(C)c5)n(C)c4)n(C)c3)OC3CCCCC3)O2)c(=O)[nH]c1=O | - | - | CEM/TK- | 2.19 µM
Cc1cn([C@@H]2O[C@H](CO[Si](C)(C)C(C)(C)C)[C@@]3(OS(=O)(=O)C=C3N)[C@H]2O[Si](C)(C)C(C)(C)C)c(=O)[nH]c1=O | IIIB | RT-E138K | CEM | 4.7 µM
O=CC1=C(Cl)N2C[C@@H]3CCCN4CCC[C@@H]([C@H]34)[C@H]2CC1 | IIIB | - | C8166 | 10.71 µg/mL
Nc1ccn([C@H]2CC[C@@H](CO)O2)c(=O)n1 | IIIB | - | CEM | 0.035 µM
CCN1C(=O)N(Cc2cccc(Cl)c2)S(=O)(=O)c2cscc21 | ADP/141 | RT-D67N K70R T215F K219Q | MT-4 | 0.6 µM
OC[C@@H]1[C@@H](O)[C@H](O)[C@@H](O)CN1C/C=C/c1ccccc1 | IIIB | - | MOLT-4 | 8.7 µM
Cc1ccc(OC2=C(C=O)CC[C@@H]3[C@H]4CCCN5CCC[C@@H](CN23)[C@@H]45)cc1 | IIIB | - | C8166 | 5.4 µg/mL
CC(C)(C)[Si](C)(C)OC[C@H]1O[C@@H](n2cnc3c(N)ncnc32)[C@H](O[Si](C)(C)C(C)(C)C)C12OS(=O)(=O)C=C2N | IIIB | RT-E138K | CEM | >8 µM
OC[C@@H]1[C@@H](O)[C@H](O)[C@@H](O)CN1CCCCC(F)(F)F | IIIB | - | MOLT-4 | 26 µM
Cc1cn([C@H]2C=C[C@@H](COP(=O)(Nc3cc(C(=O)Nc4cc(C(=O)NCCC(=N)N)n(C)c4)n(C)c3)OC(C)C)O2)c(=O)[nH]c1=O | - | - | CEM | 1.89 µM